Anti-infective test results gathered from many reports (values: NIAID ChemDB through PubChem).

All rows: whole-cell or culture tests; organism: Herpes simplex virus 2

ECn is the concentration giving n% inhibition of infection, replication or growth. An empty or dashed field is not shown. Lines come from different laboratories, so protocols vary.

smiles	method	cell line	read-out	strain	value
O=c1[nH]c(=O)n([C@H]2C[C@H](O)[C@@H](CO)O2)cc1/C=C/Br	cytopathic effect	E6SM	EC50	G	240 µg/mL
Nc1nc(N)c2ncn(CCOCP(=O)(O)O)c2n1			MIC		0.7 µg/mL
Cc1cn([C@H]2C[C@H](O)[C@@H](CO)O2)c(=O)[nH]c1=O	cytopathic effect	E6SM	EC50	G 196 LYONS	>2000 µM
NC(=O)c1ncn([C@@H]2O[C@H](CO)[C@@H](O)[C@H]2O)n1	cytopathic effect	PRK	EC50	G	>400 µg/mL
CCn1cc(C(=O)NOC)c(=O)c2ccc(-c3ccncc3)cc21	plaque count	VERO	EC50		>25 µg/mL
O=c1[nH]c(=O)n([C@H]2C[C@H](O)[C@@H](CO)O2)cc1F	plaque count	MRC-5	EC50	G	200 µM
CC#Cc1cn([C@@H]2O[C@H](COP(=O)(O)Oc3ccccc3)[C@@H](O)[C@@H]2O)c(=O)[nH]c1=O	plaque count	VERO	EC50	SC16	>100 µM
CCOC(=O)c1cc(O)c(O)c(O)c1	plaque count	HEL	EC50	G	4 µg/mL
CCn1cc(C(=O)NCCO)c(=O)c2ccc(-c3ccncc3)cc21	plaque count	VERO	EC50		>25 µg/mL
O=C(O)CP(=O)(O)O	cytopathic effect	HEL	EC50	PCV-resistant/A	6.4 µg/mL
CCO/N=C/c1ccc(OCCC2CCN(c3ccc(C)nn3)CC2)cc1	virus yield	KB	EC50	HGP	0.0021 µM
CCOC(=O)P(=O)(OC)OC[C@H]1O[C@@H](n2cc(I)c(=O)[nH]c2=O)C[C@@H]1O	cytopathic effect	VERO	EC50	TK-	>5.9 µM
O=c1[nH]c(=O)n([C@H]2C[C@H](O)[C@@H](CO)O2)cc1C1CCCCC1	cytopathic effect	E6SM	EC50	G 196 LYONS	>1200 µM
Nc1nccc2c1ncn2[C@@H]1C[C@H](CO)[C@@H](O)[C@H]1O	cytopathic effect	PRK	EC50	G	400 µg/mL
[Cl][Sn]([Cl])([c]1ccccc1)[c]1ccccc1	plaque count	HFF	EC50	MS	0.9 µg/mL
CCn1cc(C(N)=O)c(=O)c2ccc(-n3ccnc3)cc21	plaque count	VERO	EC50		>50 µg/mL
C[C@H](Cn1cnc2c(NC3CC3)ncnc21)OCP(=O)(O)O			EC50		0.7 µg/mL
CC#Cc1cn([C@@H]2O[C@H](COP(=O)(O)Oc3ccc(Cl)cc3)[C@@H](O)[C@@H]2O)c(=O)[nH]c1=O	plaque count	VERO	EC50	SC16	100 µM
CCC[CH2][Sn+2][CH2]CCC	plaque count	HFF	EC50	MS	<1 µg/mL
O=c1[nH]c(=S)n([C@H]2C[C@H](O)[C@@H](CO)O2)cc1I	plaque count	MRC-5	EC50	G	1.57 µM
C[C@]12CC[C@H]3[C@@H](CC[C@]4(O)C[C@@H](O[C@@H]5O[C@@H](O)[C@H](O)[C@@H](O)[C@H]5O)CC[C@]34C=O)[C@@]1(O)CC[C@@H]2C1=CC(=O)OC1	plaque count	GMK AH1	EC50	333	0.02 µM
O=c1ccn([C@H]2C[C@H](O)[C@@H](CO)O2)c(=O)[nH]1	cytopathic effect	E6SM	EC50	G 196 LYONS	>200 µM
NC(=O)c1c[se]c([C@@H]2O[C@H](CO)[C@@H](O)[C@H]2O)n1	cytopathic effect	HeLa	EC50	MS	4 µg/mL
COc1c2c(cc3ccoc13)C(=O)[C@H]1c3cc4c(cc3OC[C@H]1O2)OCO4	plaque count	VERO	EC50	186	>50 µg/mL
O=c1[nH]c(=S)n([C@@H]2O[C@H](CO)[C@@H](O)[C@@H]2O)cc1I	plaque count	MRC-5	EC50	G	>259 µM
O=C1c2cc3ccoc3cc2O[C@@H]2COc3cc4c(cc3[C@H]12)OCO4	plaque count	VERO	EC50	186	>50 µg/mL
CCn1cc(C(N)=O)c(=O)c2ccc(-c3cnc(C)s3)cc21	plaque count	VERO	EC50		>100 µg/mL
O=C(O)P(=O)(O)O	cytopathic effect	VERO	EC50	K979	>238 µM
NC(=O)c1ccnc([C@@H]2O[C@H](CO)[C@@H](O)[C@H]2O)c1	cytopathic effect	PRK	EC50		>400 µg/mL
C[C@H]1O[C@@H](O[C@H]2CC[C@@]3(C)[C@H](CC[C@@H]4[C@@H]3CC[C@]3(C)[C@@H](C5=CC(=O)OC5)CC[C@]43O)C2)C[C@H](O)[C@@H]1O[C@@H]1O[C@H](CO)[C@@H](O)[C@H](O)[C@H]1O	plaque count	GMK AH1	EC50	333	0.04 µM
COC(=O)[C@H](C)NP(=O)(OC[C@@H]1C[C@]12C[C@@H]2n1cnc2c(N)ncnc21)Oc1ccccc1	plaque count	HFF	EC50		22 µM
CCn1cc(C(=O)NCCN(C)C)c(=O)c2ccc(-c3ccncc3)cc21	plaque count	VERO	EC50		>100 µg/mL
COc1cc(C2c3c(cc4c(c3OC)OCO4)C[C@H]3COC(=O)[C@H]23)cc(OC)c1OC		MRC-5	EC50	G	0.058 µg/mL
Nc1ncnc2c1ncn2[C@@H]1C=C(CO)[C@@H](O)[C@H]1O	cytopathic effect	PRK	EC50	G	10 µg/mL
C1C2C3CC4C1C1C2NC3C41	plaque count	BHK-21	EC50		>25 µg/mL
N=C(N)c1cn([C@@H]2O[C@H](CO)[C@@H](O)[C@@H]2O)c2ncnc(N)c12	plaque count	VERO	EC50	MS	>100 µM
Nc1ncnc2c1ncn2[C@@H]1C=C(CO)[C@@H](O)[C@H]1O			MIC	G	10 µg/mL
O=c1[nH]c(=O)n([C@H]2C[C@H](O)[C@@H](CO)O2)cc1C1CCC1	cytopathic effect	E6SM	EC50	G 196 LYONS	850 µM
C[C@H]1O[C@@H](O[C@H]2CC[C@@]3(C)[C@H](CC[C@@H]4[C@@H]3CC[C@]3(C)[C@@H](C5=CC(=O)OC5)C(O)C[C@]43O)C2)C[C@H](O)[C@@H]1O[C@@H]1O[C@H](CO)[C@@H](O)[C@H](O)[C@H]1O	plaque count	GMK AH1	EC50	333	0.45 µM
C[CH2][Sn]([Cl])([Cl])[CH2]C.c1ccc(-c2nc3ccccc3[nH]2)nc1	plaque count	HFF	EC50	MS	8.2 µg/mL
Nc1ncnc2c1ncn2[C@H]1[C@H](O)[C@H](O)[C@]2(CO)O[C@H]12	cytopathic effect	PRK	EC50	G	2 µg/mL
Cc1cn([C@@H]2O[C@H](CO)[C@@H](O)[C@@H]2O)c(=S)[nH]c1=O	plaque count	MRC-5	EC50	G	>365 µM
Nc1ncnc2c1ncn2CCOCP(=O)(O)O			MIC		7 µg/mL
CCc1cn([C@H]2C[C@H](O)[C@@H](CO)O2)c(=O)[nH]c1=O	cytopathic effect	E6SM	EC50	G 196 LYONS	8.3 µM
Nc1ncnc2c1c(Br)cn2[C@@H]1O[C@H](CO)[C@@H](O)[C@H]1O	cytopathic effect	PRK	EC50	G	≥0.4 µg/mL
Nc1nc(N)c2ncn(CCOCP(=O)(O)O)c2n1	cytopathic effect	HEL	EC50	PCV-resistant/A	1.6 µg/mL
O=c1[nH]c(=O)n([C@H]2C[C@H](O)[C@@H](CO)O2)cc1/C=C/Br	cytopathic effect	E6SM	EC50	G 196 LYONS	1040 µM
CC(=O)O[C@H]1[C@@H](O)C[C@H](O[C@H]2[C@@H](O)C[C@H](O[C@H]3[C@@H](O)C[C@H](O[C@H]4CC[C@@]5(C)[C@H](CC[C@@H]6[C@@H]5CC[C@]5(C)[C@@H](C7=CC(=O)OC7)CC[C@]65O)C4)O[C@@H]3C)O[C@@H]2C)O[C@@H]1C	plaque count	GMK AH1	EC50	333	0.5 µM
Nc1nccc2c1ncn2[C@@H]1C[C@H](CO)[C@@H](O)[C@H]1O	cytopathic effect	PRK	EC50		>400 µg/mL
[Br][Sn]([Br])([c]1ccccc1)[c]1ccccc1	plaque count	HFF	EC50	MS	1.1 µg/mL
CCn1cc(C(N)=O)c(=O)c2ccccc21	plaque count	VERO	EC50		>50 µg/mL
C[C@H](NP(=O)(N[C@@H](C)C(=O)OC(C)(C)C)OC[C@H]1O[C@@H](n2cnc(C(N)=O)c2N)[C@H](O)[C@@H]1O)C(=O)OC(C)(C)C	cytopathic effect	HEL	EC50	G	>100 µM
CC#Cc1cn([C@@H]2O[C@H](COP(=O)(O)Oc3cccc(Cl)c3)[C@@H](O)[C@@H]2O)c(=O)[nH]c1=O	plaque count	VERO	EC50	SC16	>10 µM
COc1cc([C@@H]2c3cc4c(cc3[C@H](O)[C@H]3COC(=O)[C@H]23)OCO4)cc(OC)c1OC		MRC-5	EC50	G	0.01 µg/mL
O=C(O)P(=O)(O)O	plaque count	SIRC	EC50	91075	<100 µM
COc1cc(C[C@H]2C(=O)OC[C@@H]2Cc2cc(OC)c3c(c2)OCO3)cc(OC)c1OC		MRC-5	EC50	G	>50 µg/mL
Nc1ncnc2c1c(Br)cn2[C@@H]1O[C@H](CO)[C@@H](O)[C@H]1O	cytopathic effect	PRK/E6SM	EC50	G	0.2 µg/mL
CCn1cc(C(N)=O)c(=O)c2ccc(-c3ccccc3)cc21	plaque count	VERO	EC50		>50 µg/mL
Nc1ncnc2c1ncn2C[C@H](O)CO	cytopathic effect	PRK	EC50	196	>100 µg/mL
C[C@H]1O[C@@H](O[C@H]2[C@@H](O)C[C@H](O[C@H]3[C@@H](O)C[C@H](O[C@H]4CC[C@@]5(C)[C@H](CC[C@@H]6[C@@H]5CC[C@]5(C)[C@@H](C7=CC(=O)OC7)CC[C@]65O)C4)O[C@@H]3C)O[C@@H]2C)C[C@H](O)[C@@H]1O	plaque count	GMK AH1	EC50	333	0.2 µM
Cc1cc(=O)oc2cc(O)c(O)cc12	plaque count	HEL	EC50	G	12 µg/mL
Nc1nc2c(ncn2COCCO)c(=O)[nH]1	cytopathic effect	VERO	EC50	K979	>1.3 µM
CCc1cn([C@H]2C[C@H](O)[C@@H](CO)S2)c(=O)[nH]c1=O	cytopathic effect	E6SM	EC50	G 196 LYONS	0.23 µM
Nc1ncnc2c1ncn2CCOCP(=O)(O)O	plaque count	VERO	EC50	G	119 µM
CC(=O)Oc1ccc([C@@H]2CC(=O)c3c(cc(OC(C)=O)c(-c4c(OC(C)=O)cc5c(c4OC(C)=O)C(=O)C[C@@H](c4ccc(OC(C)=O)cc4)O5)c3OC(C)=O)O2)cc1	cytopathic effect	HFF	EC50	MS	>4 µg/mL
Nc1nc2c(ncn2CCC(CO)CO)c(=O)[nH]1	cytopathic effect	HEL	EC50	PCV-resistant/B	6.6 µg/mL
O=c1[nH]cnc2c1ncn2[C@@H]1C=C(CO)[C@@H](O)[C@H]1O	cytopathic effect	PRK	EC50	G	>400 µg/mL
Cc1cn([C@@H]2C[C@@H](O)[C@H](CO)O2)c(=O)[nH]c1=O		HFF	EC50		>100 µM
O=C1c2cc3ccoc3cc2O[C@@H]2COc3cc4c(cc3[C@]12O)OCO4	plaque count	VERO	EC50	186	>50 µg/mL
NC(=O)c1cn([C@@H]2O[C@H](CO)[C@@H](O)[C@@H]2O)c2ncnc(N)c12	plaque count	VERO	EC50	MS	28 µM
Nc1ccn(C[C@@H](CO)OCP(=O)(O)O)c(=O)n1	cytopathic effect	HEL	EC50	PCV-resistant/A	0.11 µg/mL
COC(=O)c1cc(O)c(O)c(O)c1	plaque count	HEL	EC50	G	2.6 µg/mL
CC#Cc1cn([C@@H]2O[C@H](CO)[C@@H](O)[C@@H]2O)c(=O)[nH]c1=O	plaque count	VERO	EC50	SC16	>100 µM
Nc1ncnc2c1ncn2C[C@@H](CO)OCP(=O)(O)O	cytopathic effect	HEL	EC50	HS-44	0.04 µg/mL

10 of the rows above, restated:

NC(=O)c1cn([C@@H]2O[C@H](CO)[C@@H](O)[C@@H]2O)c2ncnc(N)c12 ; method: plaque count ; cell line: VERO ; read-out: EC50 ; strain: MS ; value: 28 µM
Cc1cn([C@@H]2O[C@H](CO)[C@@H](O)[C@@H]2O)c(=S)[nH]c1=O ; method: plaque count ; cell line: MRC-5 ; read-out: EC50 ; strain: G ; value: >365 µM
CCn1cc(C(N)=O)c(=O)c2ccc(-n3ccnc3)cc21 ; method: plaque count ; cell line: VERO ; read-out: EC50 ; value: >50 µg/mL
Nc1ncnc2c1ncn2C[C@@H](CO)OCP(=O)(O)O ; method: cytopathic effect ; cell line: HEL ; read-out: EC50 ; strain: HS-44 ; value: 0.04 µg/mL
N=C(N)c1cn([C@@H]2O[C@H](CO)[C@@H](O)[C@@H]2O)c2ncnc(N)c12 ; method: plaque count ; cell line: VERO ; read-out: EC50 ; strain: MS ; value: >100 µM
NC(=O)c1c[se]c([C@@H]2O[C@H](CO)[C@@H](O)[C@H]2O)n1 ; method: cytopathic effect ; cell line: HeLa ; read-out: EC50 ; strain: MS ; value: 4 µg/mL
CCn1cc(C(N)=O)c(=O)c2ccccc21 ; method: plaque count ; cell line: VERO ; read-out: EC50 ; value: >50 µg/mL
Nc1nccc2c1ncn2[C@@H]1C[C@H](CO)[C@@H](O)[C@H]1O ; method: cytopathic effect ; cell line: PRK ; read-out: EC50 ; value: >400 µg/mL
Nc1nccc2c1ncn2[C@@H]1C[C@H](CO)[C@@H](O)[C@H]1O ; method: cytopathic effect ; cell line: PRK ; read-out: EC50 ; strain: G ; value: 400 µg/mL
O=C(O)P(=O)(O)O ; method: plaque count ; cell line: SIRC ; read-out: EC50 ; strain: 91075 ; value: <100 µM